A mixed list of measured activities; the numbers were collected in NIAID ChemDB.

Common to all: growth or infection tests; organism: HIV-1; read-out: inhibition

Percent inhibition refers to the dose given; in toxicity tests it is the harm to the cells. An empty or dashed field is not shown. Neighbouring rows are from separate reports.

compound,conditions,read by,strain,tested at,cells,changes,result
CCCCCCCCCCCCCC(=O)OC[C@H](COP(=O)(O)OC[C@@H]1CC[C@H](n2cnc3c(=O)[nH]c(N)nc32)O1)OC(=O)CCCCCCCCCCCCC,-,ELISA,IIIB,10 µM,MT-4,-,97%
Cc1ccsc1-c1cn([C@H]2C[C@H](O)[C@@H](CO)O2)c(=O)[nH]c1=O,-,RT activity,IIIB,10 µg/mL,H9,-,15%
Cc1cn([C@H]2C[C@H](N=[N+]=[N-])[C@@H](CO)O2)c(=O)[nH]c1=O,-,antigen,IIIB,0.08 µg/mL,C8166,-,71%
Nc1nc(=O)n([C@H]2C[C@H](O)[C@@H](CO)O2)cc1-c1nccs1,-,RT activity,IIIB,10 µg/mL,H9,-,10%
CC(C)=CCOc1cc(NC(=S)c2ccoc2C)ccc1Cl,-,p24,IIIB,0.0166 µg/mL,MT-2,-,70%
Cc1ccc(C(=O)OC[C@H]2O[C@@H](n3cc(-c4cccn4C)c(N)nc3=O)C[C@@H]2OC(=O)c2ccc(C)cc2)cc1,-,RT activity,IIIB,10 µg/mL,H9,-,15%
O=C1N[C@H](C(=O)O)CS1,-,RT activity,BaL,2000 µM,Macrophage + Monocytes/macrophages,-,63%
Nc1nc2c(ncn2[C@H]2CC[C@@H](CO)O2)c(=O)[nH]1,-,syncytia,IIIB,0.1 µM,MT-2,-,37%
COc1cc(OC)c2c(O)c3c(c(-c4c(OC)cc5cc6oc(C)cc(=O)c6c(O)c5c4OC)c2c1)OC(C)(O)CC3=O,-,luciferase,SF162,10 µM,TZM-bl,-,34.73%
COc1cc([C@@H]2c3cc4c(cc3[C@H](O)[C@H]3COC(=O)[C@H]23)OCO4)cc(OC)c1OC,-,RT activity,IIIB,0.007 µM,H9,-,74%
O=C(O)P(=O)(O)O,14 d,-,IIIB,64 µM,PBL,-,0%
CCC[C@@]1(CCc2ccccc2)CC(O)=C([C@H](CC)c2cccc(NS(=O)(=O)c3ccc(C(F)(F)F)cn3)c2)C(=O)O1,-,p24,Isolate N. Amer 4,0.15 µM,PBMC,-,90%
COc1cc(OC)c2c(O)c3c(c(-c4c(OC)cc5cc(O)c6c(=O)cc(C)oc6c5c4OC)c2c1)OC(C)(O)CC3=O,-,luciferase,SF162,10 µM,TZM-bl,-,3.75%
COc1cc(C[C@H]2C(=O)OC[C@@H]2Cc2ccc(OC)c(OC)c2)ccc1O,-,p24,IIIB,0.13 µM,H9,-,95%
C[C@H](Cn1cnc2c(N)ncnc21)OCP(=O)(O)O,-,p24,BaL,0.005 µM,Macrophage + Monocytes/macrophages,-,17%
Nc1nc(=O)n([C@H]2C[C@H](O)[C@@H](CO)O2)cc1-c1ccccn1,-,RT activity,IIIB,10 µg/mL,H9,-,13%
COc1ccc(CN[C@@H](C(=O)N[C@H](C(=O)NCc2nc3ccccc3[nH]2)C(C)C)[C@H](O)[C@H](Cc2ccccc2)NC(=O)[C@@H](NC(=O)OCc2ccccc2)C(C)(C)C)cc1,clinical isolate,p24,HEM,0.017 µM,Primary T4 lymphocytes + T4,-,90%
CCCCCCCCCCCCCC(=O)OC[C@@H](COP(=O)(O)OC[C@@H]1CC[C@H](n2cnc3c(N)ncnc32)O1)OC(=O)CCCCCCCCCCCCC,-,ELISA,IIIB,10 µM,MT-4,-,97%
Cc1cn([C@H]2C[C@H](N=[N+]=[N-])[C@@H](CO)O2)c(=O)[nH]c1=O,-,p24,Primary clinical isolate Rome,3.7 µM,PBMC/HIV-1 + PBMC,-,78%
CCC(C)[C@H](NC(=O)[C@H](C(C)C)[C@@H](O)[C@H](O)[C@H](CC1CCCCC1)NC(=O)c1ccccc1SCCCCC[C@@H]1SC[C@@H]2NC(=O)NC21)C(=O)NCc1ccccn1,-,-,D34,0.001 µM,PBMC,-,15%
Cn1cccc1-c1cn([C@@H]2C[C@H](O)[C@@H](CO)O2)c(=O)nc1N,-,RT activity,IIIB,10 µg/mL,H9,-,3%
O=C(OC[C@H]1O[C@@H](OC(=O)c2cc(O)c(O)c(O)c2)[C@H](O)[C@@H](OC(=O)c2cc(O)c(O)c(O)c2)[C@@H]1O)c1cc(O)c(O)c(O)c1,-,p24,IIIB,50 µg/mL,MOLT-3,-,93%
c1cc2c(cc1[C@H]1OC[C@H]3[C@@H]1CO[C@@H]3c1ccc3c(c1)OCO3)OCO2,-,p24,IIIB,8.2 µM,H9,-,97%
COC(=O)[C@@H]1C2CCC(C[C@@H]1OC(=O)c1ccccc1)N2C,-,p24,IIIB,25 µg/mL,U-937,-,<0%
C[C@H](Cn1cnc2c(N)nc(N)nc21)OCP(=O)(O)O,-,p24,BaL,0.5 µM,Macrophage + Monocytes/macrophages,-,99%
Cc1cn([C@H]2C[C@H](N=[N+]=[N-])[C@@H](CO)O2)c(=O)[nH]c1=O,-,syncytia,BRU,0.033 µg/mL,MT-4,-,66%
O=C(O)CNC(=O)[C@@H]1CSC(=O)N1,-,RT activity,BaL,2000 µM,Macrophage + Monocytes/macrophages,-,55%
CC(C)(C)NC(=O)[C@@H]1C[C@@H]2CCCC[C@@H]2CN1C[C@@H](O)[C@H](Cc1ccccc1)NC(=O)[C@H](CC(N)=O)NC(=O)c1ccc2ccccc2n1,-,p24,BaL,0.4 µM,Macrophage + Monocytes/macrophages,-,95%
CCNc1cccnc1N1CCN(C(=O)c2cc3cc(OC)ccc3[nH]2)CC1,-,MTT,Seropositive clinical isolate A,1 µM,PBMC,-,87%
Nc1ncnc2c1ncn2[C@H]1CC[C@@H](CO)O1,-,ELISA,LAV-Bru,1 µM,CEM13 + CEM,-,0%
CC(C)(C)NC(=O)[C@@H]1C[C@@H]2CCCC[C@@H]2CN1C[C@@H](O)[C@H](Cc1ccccc1)NC(=O)[C@H](CC(N)=O)NC(=O)c1ccc2ccccc2n1,-,ELISA,IIIB,60 µM,HuT-78,-,83%
Oc1ccc(/C=C/c2cc(O)cc(O)c2)cc1,clinical isolate,p24,EJC-X1,5 µM,PBMC,-,20%
Cc1cn([C@H]2CC[C@@H](CO)O2)c(=O)[nH]c1=O,-,ELISA,IIIB,10 µM,MT-4,-,90%
Cc1cn([C@H]2C[C@H](N=[N+]=[N-])[C@@H](CO)O2)c(=O)[nH]c1=O,-,RT activity,IIIB,0.0156 µM,MT-4,-,69.7%
Cc1ccsc1-c1cn([C@@H]2C[C@H](O)[C@@H](CO)O2)c(=O)[nH]c1=O,-,RT activity,IIIB,10 µg/mL,H9,-,8%
CC(C)(C)OC(=O)CNC(=O)[C@@H]1CSC(=O)N1,-,RT activity,BaL,2000 µM,Macrophage + Monocytes/macrophages,-,0%
O=C1N(Cc2ccc(CO)cc2)[C@H](Cc2ccccc2)[C@H](O)[C@@H](O)[C@@H](Cc2ccccc2)N1Cc1ccc(CO)cc1,-,p24,PB clinical isolate,0.13 µM,PBMC,-,90%
c1cc(CN2CCCNCCNCCCNCC2)ccc1CN1CCCNCCNCCCNCC1,-,p24,92US714 CLADE B R5,0.1 µM,PBMC,-,0%
COc1cc(OC)c2c(O)c3c(c(-c4c(O)cc5cc6c(c(O)c5c4OC)C(=O)CC(C)(O)O6)c2c1)OC(C)(O)CC3=O,-,luciferase,SF162,10 µM,TZM-bl,-,32.38%
CCc1cc(NCc2nc3c(Cl)ccc(Cl)c3o2)c(=O)[nH]c1C,-,p24,Clinical isolate (RT M41 D67N T215Y),0.2 µM,PBMC,RT-M41L D67N T215Y,90%
CN1C(=O)CN(c2ccccc2)Cc2nc(Cl)ccc21,-,syncytia,BRU,5 µg/mL,MT-4,-,66%
Nc1nc(=O)n([C@H]2C[C@H](OC(=O)c3ccccc3)[C@@H](COC(=O)c3ccccc3)O2)cc1-c1cccs1,-,RT activity,IIIB,10 µg/mL,H9,-,1%
O=C1CN(c2ccccc2)Cc2nc(Cl)ccc2N1,-,syncytia,BRU,2.5 µg/mL,MT-4,-,66%
COc1cc(C[C@@]2(O)C(=O)OC[C@@H]2Cc2ccc(OC)c(OC)c2)ccc1O,-,p24,IIIB,0.52 µM,H9,-,40%
CCOC(=O)[C@@H]1CSC(=O)N1,-,RT activity,BaL,2000 µM,Macrophage + Monocytes/macrophages,-,14%

The last 5 rows once more:

compound,conditions,read by,strain,tested at,cells,changes,result
CN1C(=O)CN(c2ccccc2)Cc2nc(Cl)ccc21,-,syncytia,BRU,5 µg/mL,MT-4,-,66%
Nc1nc(=O)n([C@H]2C[C@H](OC(=O)c3ccccc3)[C@@H](COC(=O)c3ccccc3)O2)cc1-c1cccs1,-,RT activity,IIIB,10 µg/mL,H9,-,1%
O=C1CN(c2ccccc2)Cc2nc(Cl)ccc2N1,-,syncytia,BRU,2.5 µg/mL,MT-4,-,66%
COc1cc(C[C@@]2(O)C(=O)OC[C@@H]2Cc2ccc(OC)c(OC)c2)ccc1O,-,p24,IIIB,0.52 µM,H9,-,40%
CCOC(=O)[C@@H]1CSC(=O)N1,-,RT activity,BaL,2000 µM,Macrophage + Monocytes/macrophages,-,14%